The subject of data set [1] is STAT3 (phospho-activated, ESAT-6-treated macrophages) + NF-kB p65. Nature of the data set: EMSA supershift. The settings on record: total extract, ESAT-6 60 min, anti-STAT3 disrupts, anti-p65 supershifts; EMSA: 3-6 ug protein extract with 32P-labeled dsDNA probe, on ice 30 min; salt and pH not given; protein in an extract; label: 32P. A general note: Mobility shift assays separate free from complexed probe on a gel.

Data set [2] deals with STAT3 (ESAT-6-treated macrophages) (Homo sapiens (monocyte-derived macrophages)) (UniProt P40763). As to the kind of experiment: EMSA, competition and supershift. The settings on record: cellular extract, ESAT-6 stimulated; EMSA: 3-6 ug protein extract with 32P-labeled dsDNA probe, on ice 30 min; salt and pH not given; protein in an extract; label: 32P.
Data set [3] deals with STAT3 (phospho-activated, ESAT-6-treated macrophages) (Mus musculus (bone marrow-derived macrophages)) (UniProt P42227). As to the kind of experiment: EMSA, antibody disruption, cold self competition. The note with it: nuclear extract, ESAT-6 60 min; EMSA: 3-6 ug protein extract with 32P-labeled dsDNA probe, on ice 30 min; salt and pH not given; protein in an extract; label: 32P.

The results in this text go back to article PMC5247711.

Construct, isoform or probe ends are uncertain for at least one entry. Results from cells or extracts need not show a direct contact. For some of these results: At least one verdict was read from the data and is not stated in words by the source.

For the sequence “GATCCTTCTGGGAATTCCTAGATC (double strand) [STAT3 binding site]”, the binding result in data set [1], in data set [2] and in data set [3] was “binds” in each case.

For the sequence “TGGGATTTTCCCATGAGTCTC (double strand) [mouse IL-6 proximal promoter (-75 to -55)]”, in data set [1], the binding result is “binds”.
